Pooled drug test results. Numbers come from NIAID ChemDB, via PubChem.

Shared fields: growth or infection tests; agent: HIV-1; measure: fold resistance

Blank or dashed fields: not listed here. Fold resistance: result on the changed form divided by that on wild type. Conditions beyond the fields shown may differ between rows.

smiles,strain or isolate,method,changes,cell line,value
O=c1[nH]cnc2c1ncn2[C@H]1CC[C@@H](CO)O1,HXB2,plaque count,RT-V75T,CD4+HELA + HeLa,5.5
Nc1nc(=O)n([C@@H]2CS[C@H](CO)O2)cc1F,RTMC(181 184) (RT D67N K70R Y181C M184V T215F K219Q),plaque count,RT-D67N K70R Y181C M184V T215F K219Q,HT4 + HT4 LacZ-1,>5560
Cc1cn([C@H]2C[C@H](N=[N+]=[N-])[C@@H](CO)O2)c(=O)[nH]c1=O,IIIB,cytopathic effect / XTT,RT-V90I T139I P225S,CEM + CEM-SS,0.2
CC(C)Nc1cccnc1N1CCN(C(=O)c2cc3cc(NS(C)(=O)=O)ccc3[nH]2)CC1,P-1 (RT-K103N Y144F),cytopathic effect,RT-K103N Y144F,CEM,423
Cc1cc(C)c2ccccc2c1-n1c(C)nnc1SCC(=O)Nc1ccc(S(N)(=O)=O)cc1Cl,NL4-3,luciferase,RT-Y188L,HeLa + HeLa-JC53,40
CC(C)CN(C[C@@H](O)[C@H](Cc1ccccc1)NC(=O)[C@H](CC(N)=O)NC(=O)c1ccc2ccccc2n1)C(=O)NC(C)(C)C,NL4-3,p24,PR-L10R M46I V82T,MT-4,0.5
Cc1ccnc2c1NC(=O)c1cccnc1N2C1CC1,HXB2,β-galactosidase,RT-K103N,MAGI (CCR5) + MAGI,55
Nc1nc2c(ncn2[C@H]2CO[C@@H](CO)O2)c(=O)[nH]1,RT-69N 70R 151M 215F,-,RT-T69N K70R Q151M T215F,-,4.7
COc1cc(C(F)(F)F)cc(S(=O)(=O)c2cccc(N)c2C#N)c1,-,β-galactosidase,RT-E138K,HeLa + HELA CD4+,2.07
Cc1cn([C@H]2C[C@H](N=[N+]=[N-])[C@@H](CO)O2)c(=O)[nH]c1=O,IIIB,p24 / ELISA,K112M K113E V128I M200I H219P,MT-2,0.4
CCOCn1c(Cc2ccccc2)c(C(C)C)c(=O)[nH]c1=O,B-1 (RT L100V K103R/K Y188H),cytopathic effect,RT-L100V K103R/K Y188H,CEM,4
Nc1ccn([C@H]2CC[C@@H](CO)O2)c(=O)n1,HXB2,plaque count,RT-V75T 184V,CD4+HELA + HeLa,28.6
Cc1cc(C#N)cc(C)c1Oc1nc(Nc2ccc(C#N)cc2)ncc1SCC(=O)N1CCSCC1,-,MTT,L100I,MT-4,9.8
Cc1cc(Br)cc(S(=O)(=O)c2cccc(N)c2C#N)c1,-,β-galactosidase,RT-V106A,HeLa + HELA CD4+,0.218
O=c1[nH]cnc2c1ncn2[C@H]1CC[C@@H](CO)O1,JF4A (RT-T69D),plaque count,RT-T69D,HELA-CD4+,1.13
Cc1c(Sc2ccccc2)n(COCCO)c(=O)[nH]c1=O,IIIB,cytopathic effect / XTT,RT-P236L,CEM + CEM-SS,>18
Cc1cn([C@H]2C[C@H](N=[N+]=[N-])[C@@H](CO)O2)c(=O)[nH]c1=O,-,MTT,Y188L,MT-4,0.5
CN[C@H]1CO[C@@H]2OCC[C@H](OC(=O)N[C@@H](Cc3cccc(OC)c3)[C@H](O)CN(CC(C)C)S(=O)(=O)c3ccc4nc(NC(C)C)sc4c3)[C@@H]21,NL4-3,p24 / luminescence,L10I I15V K20R L24I V32I M36I M46I L63P K70Q V82A I84V L89M,MT-4,0.8
CC(=O)c1ccc(C)cc1NC(C(N)=O)c1c(Cl)cccc1Cl,IIIB,MTT,RT-V103A,MAGI,7.11
C/C=C/CSc1cc(NC(=S)c2ccsc2C)ccc1Cl,UC781-R (RT-Y181C),cytopathic effect / XTT,RT-Y181C,CEM + CEM-SS,26.7
CC(C)(C)NC(=O)[C@@H]1C[C@@H]2CCCC[C@@H]2CN1C[C@@H](O)[C@H](Cc1ccccc1)NC(=O)[C@H](CC(N)=O)NC(=O)c1ccc2ccccc2n1,NL4-3,p24,PR-L63P V82T I84V,MT-4,2
COC(=O)c1ccc(NC(=O)CSc2nnc(C)n2-c2ccc(C)cc2)c(Cl)c1,NL4-3,luciferase,RT-K103N Y181C,HeLa + HeLa-JC53,300
Cc1ccnc2c1NC(=O)c1cccnc1N2C1CC1,NL4-3,XTT,RT-Y188C,CEM + CEM-SS,160
CC(C)=CCN1c2cc(Cl)cc3[nH]c(=S)n(c23)C[C@@H]1C,-,-,RT-M41L T215Y A98G,MT-4,8
CC(C)CN(C[C@@H](O)[C@H](Cc1ccccc1)NC(=O)O[C@H]1CCO[C@H]2OCC[C@H]21)S(=O)(=O)c1ccc2nc(NC3CC3)sc2c1,NL4-3,p24 / luminescence,L10F L33I M36I M46I I54V K55R I62V L63P A71V G73S V82T,MT-4,7.2
Cc1ccnc2c1NC(=O)c1cccnc1N2C1CC1,3TC-RS (RT-M184I),cytopathic effect / XTT,RT-M184I,CEM + CEM-SS,1
Cc1ccnc2c1NC(=O)c1cccnc1N2C1CC1,RTMC,plaque count,RT-D67N K70R T215Y K219Q,HT4 + HT4 LacZ-1,1
NS(=O)(=O)c1ccc(NC(=O)CSc2nnc(C(F)(F)F)n2-c2cccc3ccccc23)c(Cl)c1,NL4-3,luciferase,RT-Y188L,HeLa + HeLa-JC53,98
Nc1ccn([C@H]2CC[C@@H](CO)O2)c(=O)n1,RTMC (RT D67N K70R T215F K219Q),plaque count,RT-D67N K70R T215F K219Q,HT4 + HT4 LacZ-1,2.04
CCN[C@H]1CO[C@@H]2OCC[C@H](OC(=O)N[C@@H](Cc3ccccc3)[C@H](O)CN(CC(C)C)S(=O)(=O)c3ccc4nc(NC5CC5)sc4c3)[C@@H]21,NL4-3,p24 / luminescence,L10I L33I M36I M46I I54V K55R I62V L63P A71V G73S V82T L90M I93L,MT-4,1.9
Fc1cccc(F)c1C1SCc2nc3ccccc3n21,UC10-resistant (RT Y181C K101E),cytopathic effect / XTT,RT-Y181C K101E,CEM + CEM-SS,>20.3
CCN(c1nc(F)ccc1NC(C)(C)C)C1CCN(C(=O)c2cc3cc(NC(=O)N4CCN(C)CC4)ccc3[nH]2)CC1,IIIB,p24 / ELISA,L441P,MT-2,1.2
Cc1ccc(NC(=O)CSc2nnc(C)n2-c2ccc(C)c3ccccc23)c(Cl)c1,NL4-3,luciferase,RT-Y188L,HeLa + HeLa-JC53,100
Cn1c2ccccc2c2c1cc(C#N)c(=O)n2-c1ccc([N+](=O)[O-])cc1,NNRTI-resistant,luciferase,RT-K103N L100I,HeLa,3.6
C#C[C@@]1(CO)C=C[C@H](n2cc(C)c(=O)[nH]c2=O)O1,NL4-3,β-galactosidase,RT-K103N M184V,MAGI (CCR5) + MAGI,1.15
Cc1occc1C(=S)Nc1ccc(Cl)c(/C=N/OC(C)(C)C)c1,NL4-3 (RT K101E),cytopathic effect / XTT,RT-K101E,CEM + CEM-SS,12.5
Cc1cn([C@H]2C[C@H](N=[N+]=[N-])[C@@H](CO)O2)c(=O)[nH]c1=O,NRTI resistant,luciferase,RT-M184V,HeLa,0.3
CCN[C@H]1CO[C@@H]2OCC[C@H](OC(=O)N[C@@H](Cc3cccc(OC)c3)[C@H](O)CN(CC(C)C)S(=O)(=O)c3ccc4nc(NC(C)C)sc4c3)[C@@H]21,NL4-3,p24 / luminescence,L10F L33I M36I M46I I54V K55R I62V L63P A71V G73S V82T,MT-4,0.9
Nc1ncnc2c1ncn2CCOCP(=O)(O)O,-,-,RT-L74V,-,1
Cc1ccnc2c1NC(=O)c1cccnc1N2C1CC1,A-0 (RT-L100I),cytopathic effect,RT-L100I,CEM,3
Cc1cc(S(N)(=O)=O)ccc1NC(=O)COc1ccc(Cl)cc1C(=O)c1cc(Cl)cc(C#N)c1,NNRTI-resistant (RT V106A),β-galactosidase,RT-V106A,MAGI,6.54
CC(C)CN(C[C@@H](O)[C@H](Cc1ccccc1)NC(=O)O[C@H]1CCOC1)S(=O)(=O)c1ccc(N)cc1,IIIB,p24 / ELISA,K112M K113E V128I M200I H219P,MT-2,1.1
Cc1cc(Cl)cc(S(=O)(=O)c2cccc(N)c2C#N)c1,-,β-galactosidase,RT-Y188C,HeLa + HELA CD4+,189
Cc1cn([C@H]2C[C@H](N=[N+]=[N-])[C@@H](CO)O2)c(=O)[nH]c1=O,NL4-3,XTT,RT-T139I,CEM + CEM-SS,3
COc1ccc(S(=O)(=O)N(CC(C)C)C[C@@H](O)[C@H](Cc2ccccc2)NC(=O)O[C@H]2CCO[C@H]3OCC[C@H]32)cc1,NL4-3,p24 / luminescence,L10I I15V K20R L24I V32I M36I M46I I54V I62V L63P K70Q V82A L88M,MT-4,97
CCc1c(Sc2ccccn2)n(COCc2ccccc2)c(=O)[nH]c1=O,NL4-3,cytopathic effect / XTT,RT-Y188C,CEM + CEM-SS,133
Cc1cc(O)cc(S(=O)(=O)c2cccc(N)c2C#N)c1,-,β-galactosidase,RT-K103N,HeLa + HELA CD4+,167
O=c1[nH]cnc2c1ncn2[C@H]1CC[C@@H](CO)O1,Recombinant,luciferase,RT-M41L A62V S68N G112S V118I M184V,HeLa,0.7

A second listing of 4 rows from above:

| smiles | strain or isolate | method | changes | cell line | value |
|---|---|---|---|---|---|
| CCN(c1nc(F)ccc1NC(C)(C)C)C1CCN(C(=O)c2cc3cc(NC(=O)N4CCN(C)CC4)ccc3[nH]2)CC1 | IIIB | p24 / ELISA | L441P | MT-2 | 1.2 |
| COc1ccc(S(=O)(=O)N(CC(C)C)C[C@@H](O)[C@H](Cc2ccccc2)NC(=O)O[C@H]2CCO[C@H]3OCC[C@H]32)cc1 | NL4-3 | p24 / luminescence | L10I I15V K20R L24I V32I M36I M46I I54V I62V L63P K70Q V82A L88M | MT-4 | 97 |
| Cc1ccnc2c1NC(=O)c1cccnc1N2C1CC1 | RTMC | plaque count | RT-D67N K70R T215Y K219Q | HT4 + HT4 LacZ-1 | 1 |
| Nc1ncnc2c1ncn2CCOCP(=O)(O)O | - | - | RT-L74V | - | 1 |